Results published in paper PMC7956476, “Quinoline Functionalized Schiff Base Silver (I) Complexes: Interactions with Biomolecules and In Vitro Cytotoxicity, Antioxidant and Antimicrobial Activities” (Molecules, 2021).

system: CT-DNA-EB adduct; assay: Fluorescence competitive displacement of ethidium bromide from CT-DNA; parameters: species or system calf; details: number of binding sites
Excerpt: The Stern–Volmer plot approach was used based on the fact that the Stern–Volmer plots for Q1–Q15 (Figure 5c), were linear an indication of only one mechanism for the quenching fluorescence, i.e., either dynamic or static. […] (1) Ksv=Kqτo where Ksv, Kq, and τo represent Stern–Volmer quenching constant, bimolecular quenching constant, and an average lifetime of the fluorophore in the absence of the quencher, respectively. τₒ normally takes about 10^−8 s in biomacromolecules.
The double-logarithmic Equation (2) was used in determining the binding constant of complexes Q1–Q15 and CT-DNA. (2) logFo−F/F=logKb+n logQ
A competitive displacement study was carried out using fluorescence spectroscopy between CT-DNA pre-treated with ethidium bromide (EB) and complexes Q1–Q15 to establish the complexes′ actual mode of binding to CT-DNA. […] The competitive luminescence displacement assay was done using a modified method. Pre-treated 15 µM solution of EB with 15 µM of CT-DNA was prepared in a phosphate buffer of pH 7.2 and left to equilibrate for 30 min. Keeping CT-DNA-EB concentrations constant, different concentrations (0–20 µM) of the complexes were added at 8 min incubation interval at room temperature. The fluorescence quenching ability of CT-DNA bound EB by the complexes were recorded in the wavelength range of 530–700 nm with an excitation wavelength at 525 nm at 25 °C. (6) Fo/F=1+KSVQ=1+KqτoQ
A Stern–Volmer (Equation (6)) was used to evaluate the CT-DNA-EB fluorescence quenching of the complexes. Where Fo and F denote the relative fluorescence intensities of CT-DNA in the absence and presence of the quencher, Ksv, Stern–Volmer quenching constant, [Q], quencher concentration, Kq, bimolecular quenching constant and τo, average lifetime of the fluorophore in the absence of the quencher which is typically equal to 10^−8 s in biomacromolecules.

SMILES | CT-DNA-EB-Complex n
O=S(=O)([O-])C(F)(F)F.[Ag+] [AgCF3SO3, silver trifluoromethanesulfonate, reference compound] | 1.15
O=[N+]([O-])[O-].[Ag+].c1ccc2nc(-c3nc4ccccc4s3)ccc2c1.c1ccc2nc(-c3nc4ccccc4s3)ccc2c1 [Complex Q2, [Ag(L2)2]NO3] | 1.27
Clc1ccc(N=Cc2ccc3ccccc3n2)cc1.Clc1ccc(N=Cc2ccc3ccccc3n2)cc1.O=[N+]([O-])[O-].[Ag+] [Complex Q3, [Ag(L3)2]NO3] | 1.29
Cc1ccc(N=Cc2ccc3ccccc3n2)cc1.Cc1ccc(N=Cc2ccc3ccccc3n2)cc1.O=[N+]([O-])[O-].[Ag+] [Complex Q4, [Ag(L4)2]NO3] | 1.17
C(=NCc1cccs1)c1ccc2ccccc2n1.C(=NCc1cccs1)c1ccc2ccccc2n1.O=[N+]([O-])[O-].[Ag+] [Complex Q5, [Ag(L5)2]NO3] | 1.15
[Ag+].[O-][Cl+3]([O-])([O-])[O-].c1ccc2nc(-c3nc4ccccc4s3)ccc2c1.c1ccc2nc(-c3nc4ccccc4s3)ccc2c1 [Complex Q7, [Ag(L2)2]ClO4] | 1.11
Clc1ccc(N=Cc2ccc3ccccc3n2)cc1.Clc1ccc(N=Cc2ccc3ccccc3n2)cc1.[Ag+].[O-][Cl+3]([O-])([O-])[O-] [Complex Q8, [Ag(L3)2]ClO4] | 1.09
Cc1ccc(N=Cc2ccc3ccccc3n2)cc1.Cc1ccc(N=Cc2ccc3ccccc3n2)cc1.[Ag+].[O-][Cl+3]([O-])([O-])[O-] [Complex Q9, [Ag(L4)2]ClO4] | 1.30
C(=NCc1cccs1)c1ccc2ccccc2n1.C(=NCc1cccs1)c1ccc2ccccc2n1.[Ag+].[O-][Cl+3]([O-])([O-])[O-] [Complex Q10, [Ag(L5)2]ClO4] | ~1 and 1.31
O=S(=O)([O-])C(F)(F)F.[Ag+].c1ccc2nc(-c3nc4ccccc4s3)ccc2c1.c1ccc2nc(-c3nc4ccccc4s3)ccc2c1 [Complex Q12, [Ag(L2)2]CF3SO3] | 1.19
Clc1ccc(N=Cc2ccc3ccccc3n2)cc1.Clc1ccc(N=Cc2ccc3ccccc3n2)cc1.O=S(=O)([O-])C(F)(F)F.[Ag+] [Complex Q13, [Ag(L3)2]CF3SO3] | 1.27
Cc1ccc(N=Cc2ccc3ccccc3n2)cc1.Cc1ccc(N=Cc2ccc3ccccc3n2)cc1.O=S(=O)([O-])C(F)(F)F.[Ag+] [Complex Q14, [Ag(L4)2]CF3SO3] | 1.28
C(=NCc1cccs1)c1ccc2ccccc2n1.C(=NCc1cccs1)c1ccc2ccccc2n1.O=S(=O)([O-])C(F)(F)F.[Ag+] [Complex Q15, [Ag(L5)2]CF3SO3] | 1.30

“And” between values parts separate entries of the source, which are not always exact repeats. Equal entries are not always repeated.
